# Values from PubChem BioAssay AID1224833 (University of Georgia, 2016).
# Aim: 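Host factors restraining rotavirus as candidate antiviral genes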 (primary screen)
# Cells: monkey MA104 kidney cells
# Reagents: siRNA pool against human genes, 50 nM
# Timing: 48 h knock-down before infection; read 24 h after infection
# Conditions: infection with rotavirus strain RV3 two days after transfection; infectious dose for this stage not given
# Detection: 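Rotavirus antigen per well by fluorescent immunoassay, normalised to non-targeting control wells on each plate and given as a standard z-score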
# Reading the numbers: z-score vs non-targeting control: higher = more rotavirus replication than with non-targeting control
# Hit rule: In these data the active calls have z-score vs non-targeting control at about -1 or lower, or at about 1 or higher
# Calls: active = z-score beyond 1 either way; inactive = z-score within 1 of zero
# The whole screen tested about 12,000 reagents; below is an unselected part. About 5,600 of them (46%) count as active. 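Active calls cover z-scores past 1 in both directions, so they include lowered as well as raised rotavirus replication.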 No sequences are given here.
gene,z-score vs non-targeting control,call
EIF3H (GeneID 8667),-1.66,active
ABLIM2 (GeneID 84448),-0.0561,inactive
FMO2 (GeneID 2327),-1.16,active
RDH12 (GeneID 145226),-2.5,active
SLC7A10 (GeneID 56301),1.05,active
OR5L1 (GeneID 219437),-0.0955,inactive
IFNE (GeneID 338376),-0.0913,inactive
OR5M3 (GeneID 219482),-0.996,inactive
PDE3B (GeneID 5140),-1.01,active
WTAP (GeneID 9589),-0.81,inactive
KRT12 (GeneID 3859),-0.825,inactive
MRPS33 (GeneID 51650),-1.86,active
ROBO2 (GeneID 6092),-0.245,inactive
WNT10A (GeneID 80326),-0.505,inactive
NPM3 (GeneID 10360),-0.135,inactive
CTDSPL (GeneID 10217),0.0652,inactive
ZNF638 (GeneID 27332),0.609,inactive
C11orf24 (GeneID 53838),-2.46,active
FEM1C (GeneID 56929),-1.25,active
WDR48 (GeneID 57599),1.46,active
ZNF585B (GeneID 92285),-1.19,active
ZSCAN21 (GeneID 7589),-1.08,active
RAI2 (GeneID 10742),-0.914,inactive
SPMAP2 (GeneID 51298),2.01,active
ASS1 (GeneID 445),0.609,inactive
SIGLEC6 (GeneID 946),-1.47,active
PARD6B (GeneID 84612),0.996,inactive
EFCAB7 (GeneID 84455),-1.42,active
KLHDC8B (GeneID 200942),-0.616,inactive
ACTR5 (GeneID 79913),0.599,inactive
ABCB5 (GeneID 340273),-0.623,inactive
ZNF45 (GeneID 7596),-3.45,active
TSPAN14 (GeneID 81619),0.325,inactive
RBM44 (GeneID 375316),0.841,inactive
SUPT7L (GeneID 9913),-0.982,inactive
TMEM127 (GeneID 55654),-0.942,inactive
TSR2 (GeneID 90121),-0.663,inactive
ZNF473 (GeneID 25888),-1.46,active
NTMT1 (GeneID 28989),-0.663,inactive
GAA (GeneID 2548),0.991,inactive
ABCC6 (GeneID 368),-1.26,active
LRRC37A2 (GeneID 474170),-1.33,active
DNAJC15 (GeneID 29103),0.007,inactive
FAM110C (GeneID 642273),-2.28,active
SLC35E3 (GeneID 55508),0.32,inactive
VTI1B (GeneID 10490),0.958,inactive
RELL2 (GeneID 285613),0.0818,inactive
OR10H5 (GeneID 284433),-1.07,active
MRPL53 (GeneID 116540),0.293,inactive
NANOG (GeneID 79923),-0.93,inactive
ARGLU1 (GeneID 55082),-0.619,inactive

Targets above whose gene name begins with A or a:
gene,z-score vs non-targeting control,call
ABLIM2 (GeneID 84448),-0.0561,inactive
ASS1 (GeneID 445),0.609,inactive
ACTR5 (GeneID 79913),0.599,inactive
ABCB5 (GeneID 340273),-0.623,inactive
ABCC6 (GeneID 368),-1.26,active
ARGLU1 (GeneID 55082),-0.619,inactive

The list goes on:
gene,z-score vs non-targeting control,call
REPS2 (GeneID 9185),-1.75,active
PSG1 (GeneID 5669),1.19,active
RRP7A (GeneID 27341),-0.934,inactive
DPH7 (GeneID 92715),3.11,active
TMEM151A (GeneID 256472),0.958,inactive
GORAB (GeneID 92344),-0.592,inactive
GTF2H2 (GeneID 2966),1.27,active
ENO1 (GeneID 2023),1.17,active
CAD (GeneID 790),0.863,inactive
BCL11B (GeneID 64919),-0.28,inactive
FSHB (GeneID 2488),-1,active
HS3ST6 (GeneID 64711),1.43,active
ATP5F1C (GeneID 509),2.67,active
TTI1 (GeneID 9675),0.174,inactive
POMC (GeneID 5443),0.656,inactive
RGS18 (GeneID 64407),-0.0618,inactive
PARP1 (GeneID 142),-0.722,inactive
TIMM8B (GeneID 26521),-0.383,inactive
HPCA (GeneID 3208),-1.48,active
CNBD1 (GeneID 168975),0.677,inactive
ORC5 (GeneID 5001),0.413,inactive
PSMD13 (GeneID 5719),0.73,inactive
SNTA1 (GeneID 6640),-1.01,active
RUSC2 (GeneID 9853),-0.626,inactive
H2BC21 (GeneID 8349),-0.616,inactive
RAX2 (GeneID 84839),-1.85,active
ACCSL (GeneID 390110),-1.37,active
SERPINB10 (GeneID 5273),-0.342,inactive
EIF2S3 (GeneID 1968),-1.6,active
ATG4C (GeneID 84938),0.922,inactive
CATSPERG (GeneID 57828),-1.01,active
OR6F1 (GeneID 343169),-0.441,inactive
POU2F1 (GeneID 5451),1.32,active
GOT1 (GeneID 2805),-1.15,active
CFAP58 (GeneID 159686),3.32,active
CD4 (GeneID 920),-0.496,inactive
PRR16 (GeneID 51334),-1.27,active
SLC35E2A (GeneID 9906),-1.21,active
ZBTB48 (GeneID 3104),1.14,active
ZNF572 (GeneID 137209),-1.03,active
RORC (GeneID 6097),-2.57,active
TRIP4 (GeneID 9325),-1.87,active
CDCA2 (GeneID 157313),0.0519,inactive
ZNF621 (GeneID 285268),-1.37,active
SHISA5 (GeneID 51246),-1.94,active
AMBP (GeneID 259),-0.822,inactive
PAIP2 (GeneID 51247),0.591,inactive
DEFA3 (GeneID 1668),-0.386,inactive
TRIOBP (GeneID 11078),0.923,inactive
SEZ6L (GeneID 23544),0.639,inactive
RHEBL1 (GeneID 121268),-0.431,inactive
MEMO1 (GeneID 51072),-1.13,active
SSR4 (GeneID 6748),0.449,inactive
CNOT3 (GeneID 4849),0.0561,inactive
KRT82 (GeneID 3888),1.22,active
SNRPA (GeneID 6626),0.622,inactive
PLXNA2 (GeneID 5362),0.677,inactive
GPX5 (GeneID 2880),-1.94,active
AFG3L2 (GeneID 10939),2.1,active
LY6G5C (GeneID 80741),-0.648,inactive
RBBP7 (GeneID 5931),-1.54,active
TAC4 (GeneID 255061),1.47,active
PEX26 (GeneID 55670),-0.414,inactive
ZFC3H1 (GeneID 196441),-0.867,inactive
CALML5 (GeneID 51806),-0.673,inactive
ABCA9 (GeneID 10350),1.44,active
KIAA0825 (GeneID 285600),-0.586,inactive
POU1F1 (GeneID 5449),-1.19,active
SPATC1 (GeneID 375686),-0.825,inactive
HMGN1 (GeneID 3150),3.76,active
DEFA1 (GeneID 1667),-1.64,active
NCDN (GeneID 23154),2.56,active
NSL1 (GeneID 25936),-1.39,active
RSPO2 (GeneID 340419),1.64,active
NDUFA10 (GeneID 4705),-1.62,active
ARLN (GeneID 401152),-1.54,active
JMJD4 (GeneID 65094),-0.202,inactive
DUS1L (GeneID 64118),0.0207,inactive
TMEM168 (GeneID 64418),1.15,active
TANGO2 (GeneID 128989),-0.651,inactive
PCCA (GeneID 5095),0.981,inactive
OLFM2 (GeneID 93145),-0.217,inactive
GGTLC2 (GeneID 91227),2.71,active
RAP2C (GeneID 57826),1.13,active
GTF2IRD1 (GeneID 9569),-1.82,active
RHPN1 (GeneID 114822),1.41,active
HNRNPM (GeneID 4670),-0.66,inactive
IL10RA (GeneID 3587),-2.22,active
TBX10 (GeneID 347853),0.528,inactive
